Key:
[1] = test system: RhpR (Pseudomonas savastanoi pv. phaseolicola 1448A); experiment: EMSA; details: EMSA: 40 ng probe in 20 ul of 10 mM Tris-HCl pH 7.4, 50 mM KCl, 5 mM MgCl2, 10% glycerol; room temperature 20 min; 6% PAGE, DNA dye; recombinant protein; residues 1-249; protein details: N-terminal His6 (pET28a); probe letters rebuilt from the primers and the genome
[2] = test system: RhpR D70E (Pseudomonas savastanoi pv. phaseolicola 1448A); experiment: EMSA; details: EMSA: 40 ng probe in 20 ul of 10 mM Tris-HCl pH 7.4, 50 mM KCl, 5 mM MgCl2, 10% glycerol; room temperature 20 min; 6% PAGE, DNA dye; recombinant protein; residues 1-249; protein details: N-terminal His6 (pET28a); probe letters rebuilt from the primers and the genome

| Sequence | binding result [1] | binding result [2] |
| --- | --- | --- |
| TTCTCGAGACACTGTAACCGTCGTGTAACGCATCGCTGTTACACGACCTGTCCTACGATCCAACAGCAAATGCCAACATCGTGACGCCAGATAAACGTCAACTTTTCGACGACGCAATCTCGCCTGATTTTTTCATTAAAAAAAATCCACTTTTTTACGTAGTGGCTTTTTGGCTTTTTGCAGTAGTAGCACTTTCATATCCACCCCGCTGAAGTCCCCGCGCAATAAGGCTTTTAAGAAAAACGCCATCACCGCGATACTGCCCCTGTCACAAACTGGCTACAGCAAAATCCGCAAATCAGGACGAGTGGCCCGGAACTAAATGCGAATTCCTACGCTCCTACATCCCGTAACAATTCTGGACTGACGTGTAAGAGATCACTTACAGGTCGACTGGAAAAATGGGAAGTTACCGACAGGGAAGCCAGGTTCATGTAACGCTGGCGTCAGGTACCAGAACTAAACTCACATCACTAGTTGATGTTGTAGACAGGCGAAGCGCCCAACAGGTGTGATGCGCAGGATTCGACAAGGTCAGCCAAGGCTCTAGCCGGAGGCTTTCCGAACGAGGTCCGCCGTCGATCGTCAAACAGGAGTGGTTTACTACATCCAAGGAGAGCAGGGCCCTGCCCACCGGACAGGTCACTTGCCGCTTGTACTTAGTGTCATTTGAGTTCGCCTCACCTATTTGGGCACTCACTCATTAAATATGCCTGCGTTAGTTCCACGGCGTTGTTAGCCGTAGAGGATGGCGTGTGACATCTGCTGGCCAAAATTAATATCCAGCCAATTTATGGCGTGAAAAATCGAGGAGAATACGGGATCCAA (double strand) [algD promoter] | binds | – |
| TTGGATCCCCTTCTAAGTATTAAAGTCACAAGAGTGGAAATGTAACTATTTATGGTGTCTTGATAGACAGTTTGTGTTGTGCGTCATGACGGGGTGGGAGTTTACAGCAGGTGCGTTAGTTGCGAAGTCTCTGGCGGACTTTGGTTAGTGGCGGGAGGTGTAGGATATTTCCTAAATTAGTGTCATACATTTAAAATCTTGAGTTTTTACGTTGTTCCGGGTTTTTCATGGGTCTGTGCTTGTCTGTCCGGGCAGAGAATCCGAAGGGCAAATGTAACGGGGAGTATCAGTTTTTTTGTGTTCGGGCTGGTTAGGGCCTGCCGTCAGGCAGGCCCTTGTTCTCGAGAA (double strand) [fimA promoter] | – | binds |
| ATATATCTCGAGCCCTTTGCTTTGTCGCCAGCAGACCACCCTCGCGCCCGTGCTCCGCATGGGTATGCGGTTCCTGAAGCTCTGCGTCCGCTCTTGGGCGTGTGGTGCGGCGCAGATTTGTGACGCAGAGCGTCACCCACGGCATTCCCACGCTGGAGCGTGAGGAACGATCATCTCAACTATCGTGCGACGCTCCGCATTGCATGCCGTTCCGGGCGCTCTGCGTCCGCTCTTTGCGATTCCCACGTAGAGCGTGAGGAGCGATCATCTCAACTATCGTGCGACGCTCCGCGTCGCATGCCGTTCCGGGCGCTCTGCGTCCGCTCTGTGCGATTCCCACGCAGAGCGTGAGGAACGATCATCTCAACTATCGTGCGACGCTCCGCATTGCATGCCGTTCCGGACGCTCTGCGTCCGCTCTTGAAGATTTTCTGACTGCGCAAGGTATGCCGGTTTCACATTGCTTCTGCCTTTAAAGCCTTACCAGCACTGGCTTTGTAAAAGTTGGACAGCTTTTTGCAACAGGGTCGATACAGGTCGCCATCGGCGTCAATGTTTTGATCTAGTGCGCAGGTAAACAATCAGGATCCGTC (double strand) [flhA promoter] | – | binds |
| TTGGATCCAACCTTTTGAATTTGCTCACTTTTATTTGGCCTCTTGGATTTTCGTACCCGCTTTTGTACCCGCTACTATGTTTGCTTGGTAACGGTTGCGTTGCGTGCAGGTAATGGGAAATAAGCACAGGAGGCCGGAGTCGGCGGGTTGAAATGTCAGGTACGCCAACGCCAGCGGGCATGGGCCTTGATAACGCGCATCAAGAGTCTGCTGACCAACGTCACGGAGGGAGTCTCATTTGGAGGTTGCAGGACAGTATCGTACCCAATCCTACGGTGCAATATCATTGTACGATAGCAAAGCTGCGGATCTTAGGAGTGGCAGCCTCTCACTGATCTTTTTCTGTGCGCTAGAATTGACTCGAGAA (double strand) [trpG promoter] | binds | – |

— article PMC6426608
